Results of unrelated studies side by side (data: NIAID ChemDB).

Shared fields: tests in culture; species: Aspergillus clavatus; read by: broth dilution; endpoint: MIC

Rows are shuffled and stem from different studies.

Cc1ccc(N2NOC(=O)C2S(=O)(=O)Nc2nc3c([N+](=O)[O-])cccc3s2)cc1 ; strain: MTCC323 ; value: 500 µg/mL
O=C(CSc1nnc(-c2ccc(N=Cc3cccs3)cc2)o1)Nc1ccccc1[N+](=O)[O-] ; strain: MTCC 1323 ; value: 500 µg/mL
COc1cc(C2C(Cl)C(=O)N2NC(=O)c2cnc3c(ccc4[nH]c(Cl)cc(C)c43)c2=O)ccc1O ; value: 500 µg/mL
COc1ccccc1Nc1nc2c(sc(=S)n2-c2ccccc2)c(=O)n1-c1ccccc1OC ; strain: MTCC 1323 ; value: 0.2 µg/mL
C[C@H]1[C@H](O)[C@@H](C)/C=C/C=C/C=C/C=C/C=C/C=C/C=C/[C@H](O[C@@H]2O[C@H](C)[C@@H](O)[C@H](N)[C@@H]2O)C[C@@H]2O[C@](O)(C[C@@H](O)C[C@@H](O)CC[C@H](O)[C@@H](O)C[C@@H](O)CC(=O)O[C@H]1C)C[C@H](O)[C@H]2C(=O)O ; strain: 10058 ; value: 0.004 µg/mL
Cc1cc(Cl)[nH]c2ccc3c(=O)c(C(=O)NN=Cc4ccccc4Cl)cnc3c12 ; value: >1000 µg/mL
O=c1c2ccccc2nc(Cc2ccccc2Nc2c(Cl)cccc2Cl)n1NS(=O)(=O)c1ccc(N=Cc2ccccc2[N+](=O)[O-])cc1 ; value: >1000 µg/mL
Cc1ccc(C=NNC(=O)c2cnc3c(ccc4[nH]c(Cl)cc(C)c43)c2=O)cc1 ; value: 500 µg/mL
O=C(CSc1nnc(-c2ccc(N=Cc3cccs3)cc2)o1)Nc1ccccc1 ; strain: MTCC 1323 ; value: 500 µg/mL
Cc1cc(Cl)[nH]c2ccc3c(=O)c(C(=O)NN4C(=O)C(Cl)C4c4cc([N+](=O)[O-])ccc4O)cnc3c12 ; value: 500 µg/mL
Cc1ccc(N2NOC(=O)C2S(=O)(=O)Nc2nc3ccc(Br)cc3s2)cc1 ; strain: MTCC323 ; value: 200 µg/mL
O=C(CSc1nnc(-c2ccc(N=Cc3cccs3)cc2)o1)Nc1ccc(Cl)c(Cl)c1 ; strain: MTCC 1323 ; value: 500 µg/mL
O=C(NN1C(=O)/C(=C/c2cc3ccccc3nc2Cl)N=C1c1ccccc1)c1ccc(Cl)cc1 ; strain: MTCC 1323 ; value: 500 µg/mL
Cc1cc(Cl)[nH]c2ccc3c(=O)c(C(=O)NN4C(=O)C(Cl)C4c4ccccc4)cnc3c12 ; value: >1000 µg/mL
O=C(NN1C(=O)/C(=C/c2cc3ccccc3nc2Cl)N=C1c1ccccc1)c1ccc(F)cc1 ; strain: MTCC 1323 ; value: 100 µg/mL
O=C(CSc1nnc(-c2ccc(N=Cc3cccs3)cc2)o1)Nc1ccc(Cl)cc1 ; strain: MTCC 1323 ; value: 500 µg/mL
O=C(NN1C(=O)/C(=C/c2cc3ccccc3nc2Cl)N=C1c1ccccc1)c1ccccc1 ; strain: MTCC 1323 ; value: 1000 µg/mL
Cc1cc(Cl)[nH]c2ccc3c(=O)c(C(=O)NN4C(=O)C(Cl)C4c4ccccc4Cl)cnc3c12 ; value: 250 µg/mL
O=C(NN1C(=O)/C(=C/c2cc3ccccc3nc2Cl)N=C1c1ccccc1)c1cccc(O)c1 ; strain: MTCC 1323 ; value: 500 µg/mL
CCOc1ccc2nc(NS(=O)(=O)C3C(=O)ONN3c3ccc(C)cc3)sc2c1 ; strain: MTCC323 ; value: 250 µg/mL

A second listing of 2 rows from above:

structure,strain,value
COc1ccccc1Nc1nc2c(sc(=S)n2-c2ccccc2)c(=O)n1-c1ccccc1OC,MTCC 1323,0.2 µg/mL
O=C(NN1C(=O)/C(=C/c2cc3ccccc3nc2Cl)N=C1c1ccccc1)c1ccccc1,MTCC 1323,1000 µg/mL